## Results of single-concentration screens

The values are deposited in ChEMBL (CHEMBL3988442, “University of Dundee, Small-Polar-MMV Screening Library” (2021)).

Each number is a percent effect as filed.
How 0% and 100% were set is not recorded. Most values in the screen are low, and negative values occur.
This is part of a subset picked to be rich in strong results.
A dash means the value is not listed here; it may have been measured.

Mtb glucose medium: 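Phenotypic screen: M. tuberculosis growth, glucose 7H9 medium, 3 days; the read-out is not stated. Tested at 500 µM. Direction is inferred from retests: higher values go with more growth inhibition. Size under these conditions: about 18,000 compounds, about 1,400 of them at 50% or above in at least one test.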
Mtb cholesterol medium: 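Phenotypic screen: M. tuberculosis growth, cholesterol and DPPC medium, 4 days; the read-out is not stated. Concentration: 500 µM. Direction is inferred from retests: higher values go with more growth inhibition. Size under these conditions: about 18,000 compounds, about 900 of them at 50% or above in at least one test.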

* CC(C)c1ccsc1C(=O)NCCCC(N)=O : Mtb glucose medium: 5.807%
* O=C(CCOCC(F)(F)F)NCCNc1ccccc1 : Mtb glucose medium: 41.03%
* O=C(NCC1CCOCC1)NC1CCCC1 : Mtb glucose medium: 6.378%
* CNCCCNC(=O)CCc1ccsc1 : Mtb glucose medium: 7.075%
* CC(C)(C)NC(=O)C1CCCCN1 (centres undefined) : Mtb glucose medium: -2.483%
* CC(=O)c1ccc(CNC(=O)c2cc[nH]n2)nc1C : Mtb glucose medium: 3.56%
* CS(=O)(=O)NCCCN1CCCCC(N)C1 (centres undefined) : Mtb glucose medium: -9.283%
* CC(CNC(=O)NCc1cc[nH]n1)N1CCCC1 (centres undefined) : Mtb cholesterol medium: -0.5512%
* CC(NS(=O)(=O)N(C)C)c1ccccc1 (centres undefined) : Mtb glucose medium: 17.43%; Mtb cholesterol medium: 7.168%
* CN(C)CC(=O)Nc1ccc2c(c1)C(O)CC2(C)C (centres undefined) : Mtb glucose medium: -3.328%
* Cn1ncc(Cl)c1C(=O)Nc1ccncc1 : Mtb cholesterol medium: 12.9%
* Cc1cccc(C(=O)NCC(O)c2cccnc2)n1 (centres undefined) : Mtb glucose medium: 4.267%; Mtb cholesterol medium: -6.701%
* CS(=O)(=O)N1CCN(c2cccc(O)c2)CC1 : Mtb glucose medium: 12.12%
* COc1ccc(-c2cc(NCCO)nc(N)n2)cc1C : Mtb glucose medium: 59.9%; Mtb cholesterol medium: 51.06%
* CCc1nn2c(=O)cc(CN(CC)CC)nc2s1 : Mtb glucose medium: 8.773%
* CC(O)CN(C)Cc1ccc(N2CCCC2)nc1 (centres undefined) : Mtb glucose medium: 0.8016%
* CCC(=O)Nc1cccc(C(=O)Nc2cc(C)on2)c1 : Mtb glucose medium: 4.018%
* O=c1ccc(Br)cn1Cc1noc(C2CC2)n1 : Mtb glucose medium: 62.68%; Mtb cholesterol medium: 69.9%
* N[C@@H](C(=O)NCCc1cn[nH]c1)C1CCCCC1 : Mtb glucose medium: 2.752%
* Cc1cccc(NC(=O)CC2CCS(=O)(=O)C2)c1C (centres undefined) : Mtb glucose medium: 3.583%
* Cc1ccsc1CN(C)C(=O)c1ccc(=O)n(C)n1 : Mtb cholesterol medium: -1.34%
* CCOc1ccc(C(=O)N(C)C(C)c2ccncn2)o1 (centres undefined) : Mtb glucose medium: 21.43%
* c1ccc2[nH]c(NCCOCC3CCCO3)nc2c1 (centres undefined) : Mtb cholesterol medium: 12.43%

Some entries from above, unchanged:

Compound	Mtb glucose medium	Mtb cholesterol medium
CCOc1ccc(C(=O)N(C)C(C)c2ccncn2)o1 (centres undefined)	21.43	-
c1ccc2[nH]c(NCCOCC3CCCO3)nc2c1 (centres undefined)	-	12.43
Cc1cccc(NC(=O)CC2CCS(=O)(=O)C2)c1C (centres undefined)	3.583	-